PubChem BioAssay AID504761, Drosophila RNAi Screening Center, 2011

- Assay: 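Insect host genes that dengue virus relies on to spread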 (primary screen)
- Cells: D.Mel-2 cells from Drosophila
- Knock-down reagent: long dsRNA against Drosophila genes
- Treatment: infection with dengue virus type 2; dose and infection time not stated
- Read-out: 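Per well on two replicate plates, imaging gave the percent of cells positive for viral envelope protein, ranked by infection, and a nuclear count of cells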
- Reading the numbers: infection score: higher = more virus-infected cells; cell count: higher = more cells in the well
- Active means: 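Low infection ranks in the two replicates (chance level up to 0.065) followed by a retest with a 1.5-fold or larger significant decrease, p below 0.05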
- Meaning of the calls: active = confirmed: knock-down lowers infection; inactive = not picked or not confirmed
In all, the deposit lists about 22,000 reagents; this is a random part of those that have a named target and a result. In the full data, 116 (0.52%) got an active call. 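Calls depend on retest data that are not deposited; infection was ranked per plate without normalising between plates; the unit of the infection score is not given.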 The raw values are shown without normalisation. The record does not give: the amount of reagent, the time to read-out.

target | amplicon | infection score, replicate 1 | infection score, replicate 2 | cell count, replicate 1 | cell count, replicate 2 | activity call
CG33269 | DRSC10585 | 2.76 | 8.01 | 5372 | 5627 | inactive
stj | DRSC06124 | 16.7 | 10.1 | 5582 | 6448 | inactive
dnr1 | DRSC03948 | 2.69 | 1.55 | 6691 | 6527 | inactive
dnr1 | DRSC04122 | 24.1 | 15.7 | 6297 | 4955 | inactive
dnr1 | DRSC26101 | 15.8 | 10.5 | 5055 | 6099 | inactive
Cln7 | DRSC11005 | 8.02 | 2.82 | 6200 | 6557 | inactive
Spn47C | DRSC07030 | 3.58 | 3.62 | 6343 | 6385 | inactive
Spn47C | DRSC30068 | 1.63 | 6.53 | 7034 | 6213 | inactive
CG3842 | DRSC18326 | 2.27 | 2.04 | 6254 | 6381 | inactive
CG3842 | DRSC26584 | 2.81 | 4.74 | 6575 | 6268 | inactive
Ube4A | DRSC02004 | 3.31 | 16.1 | 5916 | 5422 | inactive
CG15283 | DRSC01980 | 13.4 | 3.85 | 5072 | 6356 | inactive
bves | DRSC20520 | 1.33 | 2.52 | 6107 | 4878 | inactive
bves | DRSC20555 | 10.8 | 2.58 | 5425 | 6116 | inactive
Mst85C | DRSC16746 | 4.03 | 5.46 | 6446 | 6022 | inactive
Mst85C | DRSC26445 | 1.34 | 4.84 | 6057 | 6388 | inactive
CG8501 | DRSC07198 | 0.93 | 3 | 6120 | 6358 | inactive
prc | DRSC11385 | 1.34 | 2.56 | 6404 | 6785 | inactive
CG9254 | DRSC01969 | 4.45 | 5.5 | 6382 | 6278 | inactive
Osi9 | DRSC12278 | 2.42 | 6.95 | 7467 | 6546 | inactive
Osi9 | DRSC28928 | 14.5 | 16.4 | 5672 | 5657 | inactive
CG14628 | DRSC18626 | 2.97 | 9.19 | 6658 | 4906 | inactive
tinc | DRSC14798 | 0.46 | 5.99 | 6555 | 6465 | inactive
tinc | DRSC14799 | 1.56 | 7.36 | 6338 | 6275 | inactive
tinc | DRSC16308 | 6.18 | 3.4 | 5645 | 6730 | inactive
tinc | DRSC16309 | 6.11 | 13.1 | 6280 | 5995 | inactive
sowah | DRSC09186 | 0.48 | 0.31 | 6732 | 6467 | inactive
sowah | DRSC09758 | 18.2 | 14.9 | 4714 | 4165 | inactive
Sms | DRSC10408 | 0.45 | 2.7 | 6254 | 6290 | inactive
CG31845 (retired record) | DRSC23074 | 0.98 | 3.06 | 6247 | 6528 | inactive
NitFhit | DRSC08680 | 3.63 | 10.4 | 6317 | 6421 | inactive
NitFhit | DRSC28018 | – | 15.5 | 445 | 6310 | inactive
Hdc | DRSC07439 | 12.4 | 10.9 | 6393 | 6363 | inactive
Hdc | DRSC25907 | 3.46 | 7.52 | 6243 | 6515 | inactive
norpA | DRSC18806 | 3.57 | 30.4 | 6547 | 6648 | inactive
Prosalpha4 | DRSC20271 | 10.3 | 9.6 | 5652 | 5374 | inactive
Prosalpha4 | DRSC25287 | 1.81 | 8.75 | 6579 | 5727 | inactive
Rpt5 | DRSC16842 | 8.18 | 12.7 | 2177 | 2052 | inactive
Rpt5 | DRSC26269 | 3.28 | 3.08 | 792 | 845 | inactive
lncRNA:roX2 | DRSC22237 | 8.78 | 4.95 | 6559 | 6686 | inactive
lncRNA:roX2 | DRSC27049 | 16.2 | 9.53 | 6544 | 4827 | inactive
pst | DRSC11003 | 7.52 | 2.43 | 6384 | 6754 | inactive
CG12164 | DRSC06115 | 4.5 | 11.7 | 6646 | 6242 | inactive
CG12164 | DRSC21777 | 7.13 | 9.18 | 6539 | 7027 | inactive
CG12164 | DRSC25698 | 9.8 | 18.4 | 6605 | 6094 | inactive
Ir31a | DRSC22358 | 3.85 | 4.65 | 6435 | 6477 | inactive
CG3225 | DRSC00578 | 25.5 | – | 6158 | 527 | inactive
CG3225 | DRSC30078 | 3.76 | 6.87 | 6199 | 6241 | inactive
Spf30 | DRSC11976 | 4.93 | 4.36 | 4681 | 4706 | inactive
kat-60L1 | DRSC12184 | 8.72 | 18.2 | 5952 | 5890 | inactive
kat-60L1 | DRSC25414 | 0.06 | 0.22 | 6360 | 6360 | active
emei | DRSC10897 | 4.55 | 7.06 | 6264 | 5664 | inactive
emei | DRSC22684 | 4.58 | 0.68 | 6269 | 6348 | inactive
CG3494 | DRSC04375 | 2.67 | 9.86 | 6823 | 5839 | inactive
CG13288 | DRSC09962 | 3.86 | 7.97 | 6223 | 5957 | inactive
CG16986 | DRSC08502 | 2.38 | 3.9 | 6103 | 5636 | inactive
Tim13 | DRSC09848 | 1.72 | 4.55 | 5682 | 6171 | inactive
Cyp28c1 | DRSC20236 | 11.7 | 22.9 | 2301 | 5211 | inactive

Only “cell count, replicate 2” (2 entries from above):
NitFhit [DRSC28018]	6310
Hdc [DRSC07439]	6363
